Anti-infective test results gathered from many reports (values: NIAID ChemDB through PubChem).

Common to all: tests on isolated targets; species: HIV-1; target: Integrase; read-out: IC50

Two numbers with a dash give a range or band. Conditions beyond the fields shown may differ between rows. Blank or dashed fields: not listed here. ICn is the concentration giving n% inhibition.

| SMILES | changes | method | value |
|---|---|---|---|
| O=C1c2c(O)c(=O)n(C3CCC(O)CC3)c(=O)n2CCN1Cc1ccc(F)cc1 | - | strand transfer | <10 µM |
| N#C/C(=C\c1ccc(O)c(O)c1)C(=O)NC1CCC(CC2CCC(NC(=O)/C(C#N)=C/c3ccc(O)c(O)c3)CC2)CC1 | - | disintegration | >12 µM |
| O=C(/C=C/c1ccc(O)c(O)c1)Oc1cccc2c(N=C=S)cccc12 | - | 3′ processing | 2 µM |
| CC(C)C(=O)c1cn2ccn(Cc3ccc(F)cc3)c(=O)c2c(O)c1=O | - | ELISA | <0.01 µM |
| Cc1ccc(CN(C(=O)/C=C(\O)C(=O)O)c2ccc(Cl)cc2)cc1 | - | strand transfer | <70 µM |
| O=C1c2c(O)c(=O)n(CC3COCCO3)c(=O)n2CCN1Cc1ccc(F)cc1 | - | strand transfer | <10 µM |
| O=C(/C=C(\O)C(=O)O)NCc1cccc(Cl)c1Cl | - | strand transfer | <70 µM |
| CCOC(=O)c1cn(C)c2cc(N3CCN(c4ccccn4)CC3)c(N)cc2c1=O | - | strand transfer | >100 µM |
| COc1ccc(/C=C2\C(=O)N(c3cccc(F)c3)NC2C(F)(F)F)cc1OCc1ccc(F)cc1 | - | strand transfer | 60 µM |
| CCN1C/C(=C\c2cc(O)c(O)c(O)c2)C(=O)/C(=C/c2cc(O)c(O)c(O)c2)C1 | - | 3′ processing | 0.5 µM |
| O=C1c2c(O)c(=O)c(-c3nccs3)cn2CCN1Cc1ccc(Cl)cc1O | - | ELISA | <0.01 µM |
| O=C1/C(=C/c2cc(O)c(O)c(O)c2)CC/C1=C\c1cc(O)c(O)c(O)c1 | - | 3′ processing | 1.6 µM |
| CCCCNC(=O)c1cn2ccn(Cc3cccc(Cl)c3)c(=O)c2c(O)c1=O | - | ELISA | <0.01 µM |
| O=C(CCCCCNC(=O)CCCC[C@@H]1SC[C@@H]2NC(=O)N[C@@H]21)NCCCCCC(=O)NCc1cn(Cc2ccc(C(=O)c3cccc(/C(O)=C/C(=O)C(=O)O)c3)cc2)nn1 | - | strand transfer | 12.4 µM |
| O=C(/C=C/c1ccccc1)OCCc1ccc(N=C=S)cc1 | - | 3′ processing | >100 µM |
| CN(Cc1ccco1)C(=O)/C=C(\O)C(=O)O | - | strand transfer | <70 µM |
| OC1/C(=C/c2ccc(Cl)c(Cl)c2)CSC/C1=C\c1ccc(Cl)c(Cl)c1 | - | strand transfer | >100 µM |
| O=C(/C=C/c1ccc(O)c(O)c1)Oc1ccc2c(N=C=S)cccc2c1 | C56S | 3′ processing | 20 µM |
| COc1ccc(/C=C2\C(=O)N(c3ccc(S(=O)(=O)O)cc3)NC2C(F)(F)F)cc1OCc1ccc(F)cc1 | - | strand transfer | >100 µM |
| N#C/C(=C\c1ccc(O)c(O)c1)C(=O)NCCCNC(=O)/C(C#N)=C/c1ccc(O)c(O)c1 | - | strand transfer | 0.8 µM |
| COC(=O)C(CCCNC(=O)/C=C/c1ccc(O)c(O)c1)NC(=O)/C=C/c1ccc(O)c(O)c1 | - | 3′ processing | <10 µM |
| N#C/C(=C\c1ccc(O)c(O)c1)C(=O)NCCCCCCCCCCNC(=O)/C(C#N)=C/c1ccc(O)c(O)c1 | - | strand transfer | 5–10 µM |
| CC(C)n1c(=O)c(O)c2n(c1=O)CCN(Cc1ccccn1)C2=O | - | strand transfer | <10 µM |
| N#C/C(=C\c1ccc(O)c(O)c1)C(=O)OCc1ccccc1COC(=O)/C(C#N)=C/c1ccc(O)c(O)c1 | - | strand transfer | 0.85 µM |
| CN(Cc1ccc(F)c(Br)c1)C(=O)/C=C(\O)C(=O)O | - | strand transfer | <70 µM |
| N#C/C(=C\c1ccc(O)c(O)c1)C(=O)NCCCCc1ccccc1 | - | 3′ processing / substrate cleavage | 10–100 µM |
| O=C(/C=C/c1ccc(Cl)c(Cl)c1)/C=C/c1ccc(Cl)c(Cl)c1 | - | strand transfer | >100 µM |
| O=C1c2c(O)c(=O)n(Cc3cscn3)c(=O)n2CCN1Cc1ccc(F)cc1 | - | strand transfer | <10 µM |
| CCOC(=O)CC1C/C(=C\c2cc(O)c(O)c(O)c2)C(=O)/C(=C/c2cc(O)c(O)c(O)c2)C1 | - | disintegration | 1.6 µM |
| CC1(C)c2nc(C(=O)NCc3ccc(F)cc3)c(O)c(=O)n2CN1Cc1cccnc1 | - | ELISA | <10 µM |
| O=C1c2c(O)c(=O)n(C3CCS(=O)(=O)CC3)c(=O)n2CCN1Cc1ccc(F)cc1 | - | strand transfer | <10 µM |
| Cc1ccc(C(=O)c2cccc(/C(O)=C/C(=O)C(=O)O)c2)cc1 | - | 3′ processing | >333 µM |
| O=C(O)c1ccccc1SCc1cc(O)ccc1O | - | strand transfer | 5–10 µM |
| O=C1c2c(O)c(=O)n(C3CCCCC3)c(=O)n2CCN1Cc1ccc(F)cc1 | - | strand transfer | <10 µM |
| O=C(NCCC(NC(=O)c1ccc(O)c(O)c1)C(=O)O)c1ccc(O)c(O)c1 | - | 3′ processing | >10 µM |
| O=C(NCc1ccc(F)cc1)c1nc2n(c(=O)c1O)C(=O)N(Cc1ccccc1)CC2 | - | ELISA | <10 µM |
| CC(=O)Nc1cc(F)ccc1CN1CCn2cc(-c3nccs3)c(=O)c(O)c2C1=O | - | ELISA | 0.1–1 µM |
| COC(=O)[C@H](CCCCNC(=O)c1cc(O)c(O)c(O)c1)NC(=O)c1cc(O)c(O)c(O)c1 | - | 3′ processing | >10 µM |
| CN(C(=O)/C=C(\O)C(=O)O)C(c1ccc(F)cc1)c1ccc(F)cc1 | - | strand transfer | <70 µM |
| O=c1c(-c2ccncc2)cn2ccn(Cc3cccc(Cl)c3)c(=O)c2c1O | - | ELISA | <0.01 µM |
| O=C(/C=C/c1ccc(O)c(O)c1)Oc1ccc2cccc(N=C=S)c2c1 | C65S | 3′ processing | 3 µM |
| Oc1ccc(/C=C/c2ccc(O)c(O)c2)cc1O | - | strand transfer | 1 µM |
| O=C(/C=C/c1ccc(O)c(O)c1)OCCc1ccc(NC(=S)SCCO)cc1 | C56S | 3′ processing | 23 µM |
| CC(C)OC(=O)c1cn2ccn(Cc3cccc(Cl)c3)c(=O)c2c(O)c1=O | - | ELISA | 0.01–0.1 µM |
| O=C1/C(=C/c2cc(O)c(O)c(O)c2)CNC/C1=C\c1cc(O)c(O)c(O)c1 | - | strand transfer | 0.5 µM |
| O=C(/C=C/c1cc(O)c(O)c(O)c1)NCCCC[C@H](NC(=O)/C=C/c1cc(O)c(O)c(O)c1)C(=O)O | - | 3′ processing | 0.81 µM |
| CNC(=O)c1cn2ccn(Cc3ccc(F)cc3)c(=O)c2c(O)c1=O | - | ELISA | <0.01 µM |
| O=C(NCc1ccc(F)cc1)c1nc2n(c(=O)c1O)CCN(Cc1ccccc1)C2 | - | ELISA | <10 µM |
| O=c1c(-c2ccccn2)cn2ccn(Cc3ccc(F)c(F)c3)c(=O)c2c1O | - | ELISA | <0.01 µM |
| CC(C)n1c(=O)c(O)c2n(c1=O)C(CCN(C)Cc1ccccc1)CN(Cc1ccc(F)cc1)C2=O | - | strand transfer | <10 µM |
| CC(=O)N1CCn2c(nc(C(=O)NCc3ccc(F)cc3)c(O)c2=O)C1C | - | ELISA | <10 µM |
| O=C1c2c(O)c(=O)n(-c3ccc(N4CCCCC4)cc3)c(=O)n2CCN1Cc1ccc(F)cc1 | - | strand transfer | <10 µM |
| C=c1/c(=C\c2ccc(OC)c(OCc3ccc(F)cc3)c2)c(CCOC(C)=O)nn1-c1ccccc1 | - | 3′ processing | >100 µM |
| O=C(O)/C(O)=C/C(=O)N(Cc1ccc(F)cc1)Cc1ccc(Cl)cc1 | - | strand transfer | <70 µM |
| O=C(O)CC1C/C(=C\c2cc(O)c(O)c(O)c2)C(=O)/C(=C/c2cc(O)c(O)c(O)c2)C1 | - | disintegration | 0.5 µM |

Repeating the final 7 entries:

SMILES,changes,method,value
O=c1c(-c2ccccn2)cn2ccn(Cc3ccc(F)c(F)c3)c(=O)c2c1O,-,ELISA,<0.01 µM
CC(C)n1c(=O)c(O)c2n(c1=O)C(CCN(C)Cc1ccccc1)CN(Cc1ccc(F)cc1)C2=O,-,strand transfer,<10 µM
CC(=O)N1CCn2c(nc(C(=O)NCc3ccc(F)cc3)c(O)c2=O)C1C,-,ELISA,<10 µM
O=C1c2c(O)c(=O)n(-c3ccc(N4CCCCC4)cc3)c(=O)n2CCN1Cc1ccc(F)cc1,-,strand transfer,<10 µM
C=c1/c(=C\c2ccc(OC)c(OCc3ccc(F)cc3)c2)c(CCOC(C)=O)nn1-c1ccccc1,-,3′ processing,>100 µM
O=C(O)/C(O)=C/C(=O)N(Cc1ccc(F)cc1)Cc1ccc(Cl)cc1,-,strand transfer,<70 µM
O=C(O)CC1C/C(=C\c2cc(O)c(O)c(O)c2)C(=O)/C(=C/c2cc(O)c(O)c(O)c2)C1,-,disintegration,0.5 µM